The record followed here is paper PMC10522769.

One data set deals with NCCCC[C@H](N)C(=O)O. In words: purified protein. The settings on record: 3 mM ATP, 15 mM MgCl2, 150 mM hydroxylamine, HEPES pH 7.5, 37 °C, 1 µM enzyme.
Another data set relates to NCCC[C@H](N)C(=O)O. In words: purified protein. The settings on record: 3 mM ATP, 15 mM MgCl2, 150 mM hydroxylamine, HEPES pH 7.5, 37 °C.

A word on the Km: it is the concentration of substrate that gives half-maximal velocity. A word on the Vmax: it is the rate approached at saturating substrate. As a reminder, the kcat is the number of substrate molecules converted per active site and unit of time at saturation. The kcat/Km is the second-order rate constant that governs catalysis at low substrate concentration. Consider “PosA adenylation domain (Acinetobacter baumannii AB307-0294; M218A)”, for which, in the data set with NCCCC[C@H](N)C(=O)O, the Km came out at 4.26 ± 0.54 mM, the Vmax is 7.06 µM/min, the kcat turned out to be 0.118 s⁻¹ and the kcat/Km was found to be 27.6 M⁻¹ s⁻¹. For the same substance, in the data set on NCCC[C@H](N)C(=O)O (1 µM enzyme), the Km is 0.51 ± 0.02 mM, the maximal velocity (Vmax) amounted to 14.5 µM/min, the kcat came out at 0.242 s⁻¹ and the kcat/Km was 474 M⁻¹ s⁻¹.
Regarding “PosA adenylation domain (Acinetobacter baumannii AB307-0294; S313A)”, in the data set with NCCC[C@H](N)C(=O)O (8 µM enzyme), the Km amounted to 32.2 ± 3.1 mM, the Vmax was 45.7 µM/min, the kcat worked out at 0.0952 s⁻¹ and the catalytic efficiency (kcat/Km) worked out at 2.96 M⁻¹ s⁻¹.
“PosA adenylation domain (Acinetobacter baumannii AB307-0294; T304A)”: in the data set on NCCC[C@H](N)C(=O)O (5 µM enzyme), the Michaelis constant (Km) worked out at 2.12 ± 0.26 mM, the maximal velocity (Vmax) was found to be 10.4 µM/min, the kcat was determined as 0.0347 s⁻¹ and the kcat/Km was 16.4 M⁻¹ s⁻¹.
